Results on 7 molecules are retold here after PMC7449455 (PLoS Neglected Tropical Diseases, 2020).

Values joined by “and” are separate entries in the source; they are usually repeats but may differ in a detail not shown here. Equal entries are not always repeated. Structures can show the parent of a compound that is named as a salt.

The subject of this data set is HepG2 cell line. Nature of the data set: Cytotoxicity in HepG2 cells (CellTiter-Glo). It is filed as cell-based, human. The settings on record: ratio CC50 HepG2 / EC50 L. major EVC. As to the method: To determine compound toxicity we used the HepG2 cell line (human hepatocellular carcinoma, ATCC HB-8065) as a widely used cell-based assay. The cells were maintained in MEM (Gibco) supplemented with 5% heat-inactivated FBS, 1 mM Sodium pyruvate (Gibco) and 1X MEM amino acids solution (Sigma). Briefly, cells were added to white-bottomed 96-well plates containing 100 μL of serial 2-fold dilutions of the H1RAs. After 24 hours of culture at 37 °C, the percentage of viable cells was determined by ATP quantification using the CellTiter-Glo luminescent Cell Viability Assay (Promega) according to the manufacturer’s instructions. […] At least three different assays were carried out to determine the IVTI of each compound, which was calculated as the ratio between the CC50 obtained in the HepG2 cell line and the EC50 determined in the L. major EVC [21]. To evaluate the cytotoxicity of AZ and FX in peritoneal macrophages, adherent cells obtained from peritoneal lavage of naïve mice (10,000/well) were exposed during 24 hours at 37°C to serial drug concentrations (0.09 μM—200 μM). Cell viability was determined by CellTiter-Glo (Promega).
Background: In ATP-based viability assays light output follows the ATP content of the culture.
Regarding `c1ccc2c(c1)Sc1ccccc1N2CC1CN2CCC1CC2` (stereo not shown) [Mequitazine], the “IVTI (in vitro therapeutic index)” value was 11–36 and 11. Take `Cc1ccc(/C(=C\CN2CCCC2)c2ccccn2)cc1` [Triprolidine]: the “IVTI (in vitro therapeutic index)” value was 35. Regarding `CN1CCCC(n2nc(Cc3ccc(Cl)cc3)c3ccccc3c2=O)CC1` (stereo not shown) [Azelastine], the “IVTI (in vitro therapeutic index)” value is on record as 942. As for `CN(C)CC[C@@H](c1ccc(Cl)cc1)c1ccccn1` [Dexchlorpheniramine maleate], the “IVTI (in vitro therapeutic index)” value was 5. For `CCCCCCCCCCCCCCCCOP(=O)([O-])OCC[N+](C)(C)C` [Miltefosine], the “IVTI (in vitro therapeutic index)” value stood at 43. Regarding `C[C@@H]1[C@H](O)[C@@H](C)/C=C/C=C/C=C/C=C/C=C/C=C/C=C/[C@H](O[C@@H]2O[C@H](C)[C@@H](O)[C@H](N)[C@@H]2O)C[C@@H]2O[C@](O)(C[C@@H](O)C[C@@H](O)[C@H](O)CC[C@@H](O)C[C@@H](O)CC(=O)O[C@H]1C)C[C@H](O)[C@H]2C(=O)O` [Amphotericin B], the “IVTI (in vitro therapeutic index)” value was determined as 33. To `CN1CCC(=C2c3ccccc3CC(=O)c3sccc32)CC1` [Ketotifen] belongs 24.
